Anti-infective test results gathered from many reports (values: NIAID ChemDB through PubChem).

All rows: growth or infection tests; species: Candida albicans; endpoint: MIC

Conditions beyond the fields shown may differ between rows.

SMILES | strain | result
COc1ccccc1/C=C1\COc2ccc(-c3ccccc3)cc2C1=O | - | 50 µg/mL
Cc1ccc(C(=O)NNC(N)=S)cc1 | - | >100 µg/mL
COc1ccc(/C=C2\CCc3ccccc3C2=O)cc1OC | - | 25 µg/mL
Cc1ccc(C(C)C)cc1 | ATCC 10231 | 0.16–0.32 µg/mL
CCn1cc(C(=O)O)c(=O)c2cc(F)c(N3CCN(CN4C(=O)C(=Nc5ccc(S(=O)(=O)Nc6ncccn6)cc5)c5cc(Br)ccc54)CC3)cc21 | - | 156 µg/mL
O=C(Cn1c(=O)oc2cc(C(=O)c3cccc(F)c3)c(Cl)cc21)c1ccc(Br)cc1 | ATCC 90028 | 128 µg/mL
CCn1cc(C(=O)O)c(=O)c2cc(F)c(N3CCN(CN4C(=O)C(=Nc5ccc(S(=O)(=O)Nc6ncccn6)cc5)c5ccccc54)CC3)cc21 | - | 156 µg/mL
O=C(Cn1c(=O)oc2cc(C(=O)c3cccc(F)c3)c(Cl)cc21)c1ccc(Cl)cc1 | ATCC 90028 | 128 µg/mL
Cc1c(C(=O)N(CCO)CCO)cc(-c2ccc([N+](=O)[O-])cc2)n1-c1ccc(Cl)cc1 | 20 strains | >200 µg/mL
Clc1nnnc2c1sc1ncccc12 | - | 6.25–12.5 µg/mL
CCCCCOc1ccc(C(=O)O)c(O)c1 | Clinical isolates | 125–250 µg/mL
O=C(N/N=C/c1cccc([N+](=O)[O-])c1)c1ccc(F)cc1 | ATCC 2091 | 125 µg/mL
O=C(Cn1c(=O)oc2cc(C(=O)c3ccccc3F)c(Cl)cc21)c1ccccc1 | ATCC 90028 | 128 µg/mL
O=C(N/N=C/c1ccccc1[N+](=O)[O-])c1ccc(F)cc1 | ATCC 2091 | 125 µg/mL
CCOc1ccc(O)c(C(=O)NN)c1 | Clinical isolates | 125–250 µg/mL
Cc1c(C(=O)N(CCO)CCO)cc(-c2ccc([N+](=O)[O-])cc2)n1Cc1ccccc1 | 20 strains | >200 µg/mL
Cc1ccc(C(=O)Cn2c(=O)oc3cc(C(=O)c4ccccc4F)c(Cl)cc32)cc1 | ATCC 90028 | 128 µg/mL
O=C(N/N=C/c1ccc([N+](=O)[O-])cc1)c1ccc(F)cc1 | ATCC 2091 | 125 µg/mL
N/C(=N\NC(=O)c1ccc(F)cc1)SCc1cccc(Cl)c1 | - | >100 µg/mL
CC(C)Oc1ccc(C(=O)O)c(O)c1 | Clinical isolates | 125–250 µg/mL
CS/C(N)=N/NC(=O)c1ccccc1 | - | >100 µg/mL
Cc1ccc(C(=O)Cn2c(=O)oc3cc(C(=O)c4c(F)cccc4F)ccc32)cc1 | ATCC 90028 | 128 µg/mL
C=CCS/C(N)=N/NC(=O)c1ccc(Cl)cc1Cl | - | >100 µg/mL
Cc1ccc(/C=C2\CCc3ccccc3C2=O)cc1 | - | 50 µg/mL
Cc1c(C(=O)N2CCN(C)CC2)cc(-c2ccc([N+](=O)[O-])cc2)n1C | 20 strains | >200 µg/mL
CC(C)Oc1cc(O)cc(C(=O)O)c1 | Clinical isolates | 125–250 µg/mL
CC(=O)N1N=C(c2ccc(F)cc2)OC1c1ccc([N+](=O)[O-])o1 | ATCC 2091 | 8 µg/mL
COc1ccc(/C=C2\COc3ccc(-c4ccccc4)cc3C2=O)cc1OC | - | 50 µg/mL
NC(=S)NNC(=O)c1ccc([N+](=O)[O-])cc1 | - | >100 µg/mL
CCc1ccc(/C=C2\CCc3ccccc3C2=O)cc1 | - | 25 µg/mL
CCn1cc(C(=O)O)c(=O)c2cc(F)c(N3CCN(CN4C(=O)C(=Nc5ccc(S(=O)(=O)Nc6ncnc(OC)c6OC)cc5)c5ccccc54)CC3)cc21 | - | 156 µg/mL
CCOC(=O)c1cc(C)nc2sc3c(Cl)nnnc3c12 | - | 25–100 µg/mL
CN(Cc1cnc2nc(N)nc(N)c2n1)c1ccc(C(=O)N[C@@H](CCC(=O)O)C(=O)O)cc1 | ATCC28366 | 1024 µg/mL
Cc1ccc(C(=O)Cn2c(=O)oc3cc(C(=O)c4cc(F)ccc4F)ccc32)cc1 | ATCC 90028 | 128 µg/mL
Cc1c(C(=O)N(CCO)CCO)cc(-c2ccc([N+](=O)[O-])cc2)n1Cc1ccc(Cl)cc1 | 20 strains | >200 µg/mL
CCC(O)/C=C/C=C/C=C/C(=O)OC[C@H]1O[C@@H](O[C@H]2[C@H](OC(=O)/C=C/C=C/CC(O)/C(C)=C/C=C/CCC(C)CC)[C@@H](O)[C@@]3(OCc4cc(O)cc(O)c43)O[C@@H]2CO)[C@H](O)[C@@H](O)[C@H]1O | IAM4888 | 1.6 µg/mL
COc1ccc(/C=C2\CSc3ccc(Cl)cc3C2=O)cc1OC | - | 50 µg/mL
CCC(C)Oc1ccc(O)c(C(=O)NN)c1 | Clinical isolates | 125–250 µg/mL
N=C(N)c1ccc2nc(-c3ccc(-c4nc5ccc(C(=N)N)cc5[nH]4)[nH]3)[nH]c2c1 | Isolate 3028 fluconazole-resistant | 0.78 µg/mL
CCn1cc(C(=O)O)c(=O)c2cc(F)c(N3CCN(CN4C(=O)/C(=N\c5ncc(Cc6cc(OC)c(OC)c(OC)c6)c(N)n5)c5ccccc54)CC3)cc21 | - | 156 µg/mL
COc1ccc(/C=C2\CS(=O)(=O)c3ccccc3C2=O)cc1 | - | 12.5 µg/mL
NC(=S)NNC(=O)c1ccccc1 | - | >100 µg/mL
CCCCCOc1ccc(C(=O)O)c(OC)c1 | Clinical isolates | 125–250 µg/mL
CCn1cc(C(=O)O)c(=O)c2cc(F)c(N3CCN(CN4C(=O)C(=Nc5ccc(S(=O)(=O)Nc6ncccn6)cc5)c5cc(Cl)ccc54)CC3)cc21 | - | 156 µg/mL
Cc1c(C(=O)N(CCO)CCO)cc(-c2ccc([N+](=O)[O-])cc2)n1-c1ccccc1Cl | 20 strains | >200 µg/mL
CCCOc1ccc(O)c(C(=O)NN)c1 | Clinical isolates | 125–250 µg/mL
O=C1/C(=C/c2ccc(F)cc2)CCc2ccccc21 | - | 50 µg/mL
NC(=S)NNC(=O)c1ccc(Cl)cc1Cl | - | >100 µg/mL

Two numbers with a dash give a range or band. An empty or dashed field is not shown.